Compound potency records, mixed from different reports. Data source: NIAID ChemDB in PubChem.

Shared fields: tests in culture; organism: HIV-1; cells: PBMC; measure: EC50

ECn is the concentration giving n% inhibition of infection, replication or growth.

CC(C)=CCc1c(O)cc2oc(-c3ccc(O)cc3O)c(CC=C(C)C)c(=O)c2c1O ; strain: LAV ; read by: RT activity ; result: 4.9 µM
C=C1CN(S(=O)(=O)c2ccc(C)cc2)CCCN(Cc2ccccc2)CCCN(S(=O)(=O)c2ccc(C)cc2)C1 ; strain: BaL ; read by: p24 ; result: 2.33 µM
CN1CCN(c2nc(-c3cccs3)cc(-c3cc4ccccc4s3)n2)CC1 ; strain: LAV-1 ; read by: RT activity ; result: 8 µM
CC(C)C(=O)Cc1c(OCC(O)C(C)(C)O)ccc2ccc(=O)oc12 ; strain: LAV ; read by: RT activity ; result: >100 µM
CN1CCN(CCSc2nnc(-c3cc4ccccc4s3)c3ccccc23)CC1 ; strain: LAV-1 ; read by: RT activity ; result: 17.2 µM
Nc1nc(=O)n([C@H]2O[C@@H](CO)[C@H](O)C2(F)F)cc1Cl ; strain: LAI ; read by: RT activity ; result: >100 µM
Cc1cnc(SCCN2CCN(C)CC2)nc1-c1cc2ccccc2s1 ; strain: LAV-1 ; read by: RT activity ; result: 6.5 µM
Cc1nc2ccccc2nc1COC(=O)c1ccc2ccccc2c1O ; strain: BaL ; read by: RT activity ; result: >100 µM
COc1cc2oc3c(c(=O)c2c(O)c1/C=C/C(C)C)C(C=C(C)C)Oc1cc(O)ccc1-3 ; strain: LAV ; read by: RT activity ; result: 10 µM
Nc1nc(=O)n(C2O[C@@H](CO)[C@H](O)C2(F)F)cc1Br ; strain: LAI ; read by: RT activity ; result: >100 µM
Cc1cn([C@H]2C[C@H](N=[N+]=[N-])[C@@H](CO)O2)c(=O)[nH]c1=O ; strain: BaL ; read by: RT activity ; result: 0.0044 µM
COc1cc(OC)c2ccc(=O)oc2c1CC(O)C(C)(C)O ; strain: LAV ; read by: RT activity ; result: >100 µM
Nc1ccn([C@H]2O[C@@H](CO)[C@H](O)C2(F)F)c(=O)n1 ; strain: LAI ; read by: RT activity ; result: >100 µM
CCO/N=C(\c1ccc(Br)cc1)C1CCN(C2(C)CCN(C(=O)c3c(C)cc[n+]([O-])c3C)CC2)CC1 ; strain: JR-FL ; read by: p24 ; result: 0.005 µM
OCCNc1nc(-c2cccs2)cc(-c2cc3ccccc3s2)n1 ; strain: LAV-1 ; read by: RT activity ; result: 3.1 µM
COc1cc([N+](=O)[O-])c(S(=O)(=O)[O-])cc1N=N/C(=N\Nc1cc(S(=O)(=O)[O-])c([N+](=O)[O-])cc1OC)C(=O)Nc1ccccc1 ; strain: 92US657 R5 ; read by: p24 ; result: 30.63 µM
CN1CCN(Cc2ccc(-c3cccc(-c4ccc(CN5CCN(C)CC5)cc4)n3)cc2)CC1 ; strain: LAV-1 ; read by: RT activity ; result: 22 µM
CC(=O)Oc1ccccc1C(=O)O ; strain: BaL ; read by: p24 ; result: 527 µM
CC(C)=CCOc1cc(NC(=S)c2ccoc2C)ccc1Cl ; strain: WEJO ; read by: cytopathic effect / XTT ; result: <0.007 µM
CCCCCCCCCCCCCCCC(=O)N(CCCCCCCCCCC(=O)O)CC(O)C(O)C(O[C@@H]1O[C@H](CO)[C@H](O)[C@H](O)[C@H]1O)C(O)CO ; read by: XTT / p24 ; result: 108 µM
COC(=O)[C@H](Cc1c[nH]c2ccccc12)NP(=O)(OCCC#N)OC[C@H]1O[C@@H](n2cc(C)c(=O)[nH]c2=O)C[C@@H]1N=[N+]=[N-] ; strain: LAV ; read by: RT activity ; result: 0.4 µM
CC(C)C(=O)Cc1c(OCC2OC2(C)C)ccc2ccc(=O)oc12 ; strain: LAV ; read by: RT activity ; result: >100 µM
COc1cc(-c2ccc(Nc3ccccc3C(=O)O)c(OC)c2)ccc1Nc1ccccc1C(=O)O ; strain: BaL ; read by: RT activity ; result: 2.94 µM
CCCOC(=O)C(C)(C)NP(=O)(CO[C@@H](C)Cn1cnc2c(N)ncnc21)C(C#N)C#N ; read by: RT activity / fluorescence ; result: >2.101 µM
COC(=O)[C@H](Cc1ccccc1)NP(=O)(OC)OC[C@H]1O[C@@H](n2cc(C)c(=O)[nH]c2=O)C[C@@H]1N=[N+]=[N-] ; strain: LAV ; read by: RT activity ; result: 0.09 µM
CN(C)CCSc1cccc(-c2ccnc(SCCN(C)C)n2)c1 ; strain: LAV-1 ; read by: RT activity ; result: 9.3 µM
COc1c2ccoc2c(OCC(O)C(C)(C)O)c2oc(=O)ccc12 ; strain: LAV ; read by: RT activity ; result: >100 µM
COc1cccc(OC)c1C(=O)OCc1nc2ccccc2nc1C ; strain: 89BZ167 ; read by: RT activity ; result: 23.3 µM
CN(C)CCNc1nc(-c2ccco2)cc(-c2cc3ccccc3s2)n1 ; strain: LAV-1 ; read by: RT activity ; result: 2.1 µM
CC(C)=CCOc1cc(NC(=S)c2ccsc2C)ccc1Cl ; strain: WEJO ; read by: cytopathic effect / XTT ; result: 0.007 µM
CCCCCCCCCCCCCCCCCCOCCOP(=O)(CO[C@H](C)Cn1cnc2c(N)ncnc21)OC1CC1 ; read by: luminescence ; result: 0.413 µM
COc1ccc2ccc(=O)oc2c1CC(=O)C(C)C ; strain: LAV ; read by: RT activity ; result: >100 µM
Cc1ccc(C(=O)OCc2nc3ccccc3nc2C)cc1O ; strain: BaL ; read by: RT activity ; result: >100 µM
COC(=O)[C@H](Cc1c[nH]c2ccccc12)NP(=O)(O)OC[C@H]1O[C@@H](n2cc(C)c(=O)[nH]c2=O)C[C@@H]1N=[N+]=[N-] ; strain: LAV ; read by: RT activity ; result: 0.01 µM
Nc1nc(=O)n([C@H]2O[C@@H](CO)[C@H](O)C2(F)F)cc1Br ; strain: LAI ; read by: RT activity ; result: >100 µM
COc1cc(C(=O)OCc2nc3ccccc3nc2C)cc(OC)c1OC ; strain: 89BZ167 ; read by: RT activity ; result: >100 µM
Cc1ccc(-c2ccc3c(c2)C=C(C(=O)Nc2ccc(C[N+](C)(C)C4CCOCC4)cc2)CCC3)cc1 ; strain: Du151 CLADE C ; read by: p24 ; result: <1 µM
CC(C)=CC1Oc2cc(O)ccc2-c2oc3cc4c(c(O)c3c(=O)c21)C=CC(C)(C)O4 ; strain: LAV ; read by: RT activity ; result: 20.6 µM
CN[C@@H]1[C@H](O[C@@H]2OC[C@@H](O)[C@H](O)[C@H]2O)[C@@H](O)[C@H](O[C@H]2c3cc(C)c(C(=O)N[C@H](C)C(=O)O)c(O)c3-c3c(cc4c(c3O)C(=O)c3cc(OC)cc(O)c3C4=O)[C@@H]2O)O[C@@H]1C ; strain: Clade B US2 (R5-tropic) ; read by: p24 / ELISA ; result: 2.7 µM
COC(=O)c1ccc(C(=O)OCc2nc3ccccc3nc2C)cc1 ; strain: BaL ; read by: RT activity ; result: >100 µM
O=c1ccn([C@@H]2O[C@@H](CO)[C@H](O)C2(F)F)c(=O)[nH]1 ; strain: LAI ; read by: RT activity ; result: >100 µM

The first 3 rows once more:

smiles	strain	read by	result
CC(C)=CCc1c(O)cc2oc(-c3ccc(O)cc3O)c(CC=C(C)C)c(=O)c2c1O	LAV	RT activity	4.9 µM
C=C1CN(S(=O)(=O)c2ccc(C)cc2)CCCN(Cc2ccccc2)CCCN(S(=O)(=O)c2ccc(C)cc2)C1	BaL	p24	2.33 µM
CN1CCN(c2nc(-c3cccs3)cc(-c3cc4ccccc4s3)n2)CC1	LAV-1	RT activity	8 µM

Conditions beyond the fields shown may differ between rows.